Anti-infective test results gathered from many reports (values: NIAID ChemDB through PubChem).

Shared fields: growth or infection tests; agent: Staphylococcus aureus; measure: MIC

Conditions beyond the fields shown may differ between rows. Blank or dashed fields: not listed here.

smiles,strain,result
O=C(NC[C@H]1CN(c2ccc3c(c2)-n2cccc2COC3)C(=O)O1)c1ccccc1,ATCC 49951 (SMITH),>32 µg/mL
CCN(CC)CCSc1ccc(N2C[C@H](CNC(C)=O)OC2=O)cc1F,ATCC 29213 (linezolid-resistant),>64 µg/mL
CCCCCCCCCCCC[N+](C)(C)CSCCCCCC,ATCC 6538,13.1 µM
CC[C@H]1OC(=O)[C@H](C)C(=O)[C@H](C)[C@@H](O[C@@H]2O[C@H](C)C[C@H](N(C)C)[C@H]2O)[C@@]2(C)C[C@@H](C)C(=O)[C@H](C)C(OC/C=C/CO2)[C@]1(C)O,27660 (erythromycin-resistant),2 µg/mL
COC(=S)NC[C@H]1CN(c2ccc3c(c2)-n2cccc2COC3)C(=O)O1,ATCC 29213 (MSSA),0.5 µg/mL
CCNc1c(F)cc2c(=O)c(C(=O)O)cn(-c3cc(N)c(F)cc3F)c2c1C,MR8736 (methicillin-resistant),0.5 µg/mL
CCCCCCCCCCCC[N+](C)(C)COCCCCCCCCCCC,ATCC33592,11.5 µM
N=Cc1cn(-c2ccc(N3C[C@H](COc4ccon4)OC3=O)cc2F)cn1,122 (novobiocin-resistant),2 µg/mL
C=CCn1cc(-c2ccc(N3C[C@H](CNC(C)=O)OC3=O)cc2F)cn1,UC9213 (methicillin-susceptible),4 µg/mL
CCc1cc(Nc2cc(=O)n(CCCC(=O)NCc3ccco3)c(=O)[nH]2)ccc1C,,64 µg/mL
CC(C)=CCc1c(O)ccc2c1OC1c3cc4ccoc4cc3OCC21,,72.1 µg/mL
O=C1O[C@@H](CNc2ccon2)CN1c1ccc(-n2cnc(CO)c2)c(F)c1,078 (oxford),0.25 µg/mL
CCOC(=O)NC[C@H]1CN(c2ccc3c(c2)-n2cccc2COC3)C(=O)O1,ATCC 33591 (MRSA),16 µg/mL
CCCCCCCC[N+](C)(C)COCC(CC)CCCC,ATCC33592,7.4 µM
CC(=O)NC[C@H]1CN(c2ccc(-c3noc(C#N)n3)c(F)c2)C(=O)O1,UC6685 (methicillin-resistant),16 µg/mL
CCCCCCCC[N+](C)(C)COC1CCCCCCCCCCC1,ATCC33592,2.56 µM
O=C1O[C@@H](COc2cnsn2)CN1c1ccc(-n2ccnc2)c(F)c1,122 (novobiocin-resistant),0.5 µg/mL
CNc1c(F)cc2c(=O)c(C(=O)O)cn(-c3cc(N)c(F)cc3F)c2c1C,W44 (methicillin-resistant),0.25 µg/mL
CC(=O)NC[C@H]1CN(c2ccc(SCCO)c(F)c2)C(=O)O1,ATCC 29213 (linezolid-resistant),>64 µg/mL
CC(=O)NC[C@H]1CN(c2ccc(-c3ccn(CC#N)n3)c(F)c2)C(=O)O1,UC6685 (methicillin-resistant),2 µg/mL
CC1(C)C=Cc2cc3c(cc2O1)OC1c2ccc(O)cc2OCC31,,28.4 µg/mL
CCN(CC)CCN(CC)c1cc2c(cc1F)c(=O)c(C(=O)O)cn2C1CC1,ATCC 5278 (methicillin-resistant),>100 µg/mL
CCc1cc(Nc2cc(=O)n(CC3CCN(C(=O)c4ccc(Cn5cc(Cl)cn5)o4)CC3)c(=O)[nH]2)ccc1C,,4 µg/mL
CCNCCCN(CC)c1cc2c(cc1F)c(=O)c(C(=O)O)cn2C1CC1,ATCC 6538P,6.25 µg/mL
N#Cc1ccc(N2CCN(c3ccc(N4C[C@H](COc5ccncn5)OC4=O)cc3F)CC2)nc1,004 (methicillin quinolone-resistant),2 µg/mL
CC(N)CCCCNc1cc2c(cc1F)c(=O)c(C(=O)O)cn2C1CC1,ATCC 5278 (methicillin-resistant),>100 µg/mL
Cc1c(NCCO)c(F)cc2c(=O)c(C(=O)O)cn(-c3cc(N)c(F)cc3F)c12,SMITH,0.008 µg/mL
O=C(O)c1cn(C2CC2)c2cc(NCCCO)c(F)cc2c1=O,ATCC 6538P,>100 µg/mL
CC(=O)NC[C@H]1CN(c2ccc(SC3(C)CCOC3=O)c(F)c2)C(=O)O1,ATCC 29213 (linezolid-resistant),>64 µg/mL
O=CNC[C@H]1CN(c2ccc3c(c2)-n2cccc2COC3)C(=O)O1,ATCC 29213 (MSSA),8 µg/mL
CC1CN(c2cc3c(cc2F)c(=O)c(C(=O)O)cn3C2CC2)CC(C)N1,ATCC 6538P,1.56 µg/mL
CCCCCCCCCCSC[N+](C)(C)CCCCCCCC,ATCC33592,13.2 µM
CC(=O)NC[C@H]1CN(c2ccc(-c3cc(C#N)cs3)c(F)c2)C(=O)O1,UC9213 (methicillin-susceptible),≤0.5 µg/mL
O=C(O)c1cn(C2CC2)c2cc(NCCO)c(F)cc2c1=O,ATCC 5278 (methicillin-resistant),12.5 µg/mL
CCCCCCCCCCCC[N+](C)(C)COC1CCCCCCCCCCC1,ATCC33592,13.4 µM
CC(C)=CCc1c(O)ccc2c1OC1c3ccc(O)c(CC=C(C)C)c3OCC21,,13.6 µg/mL
CCCCCCCC[N+](C)(C)COC(C)CCC,ATCC33592,17 µM
COC(=O)CCn1c(C)nc([N+](=O)[O-])c1Sc1ccc(N2C[C@H](CNC(C)=O)OC2=O)cc1F,ATCC 29213 (linezolid-resistant),>64 µg/mL
CCCCCCCCCCCC[N+](C)(C)CSCCC,ATCC33592,15 µM
O=C(NC[C@H]1CN(c2ccc(C3CCS(=O)(=O)CC3)c(F)c2)C(=O)O1)Nc1ccc(Cl)c(Cl)c1,ATCC 29213 (linezolid-resistant),>64 µg/mL